The results in this text go back to PubChem BioAssay AID743269 (The Scripps Research Institute Molecular Screening Center, 2014).

The entries are a selection whose mix differs from that of the whole data set. The source made the active and inactive calls.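 The calls were made as follows: active = inhibition above the screen-wide mean plus 3 SD (cut at about 13% in these data); inactive = the rest.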

For this assay, the system named is HIV-1 integrase (with human LEDGF/p75). As to the kind of experiment: blockers of LEDGF/p75-dependent integrase strand transfer – biochemical, TR-FRET, high throughput, primary screen (AID 743269).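 Also: signal is the Cy5 over europium emission ratio at 671 and 618 nm; 0% = plate median of compound wells.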 The settings on record: TR-FRET IN-LEDGF/p75 DNA integration, Eu/Cy5; at 3.7 µM; stronger effect = higher value.
Turning to `O=C(NCC1(N2CCOCC2)CCCCC1)c1cc(F)c(F)cc1Cl`, the inhibition was inactive: -2.94%.

Regarding `CCC(c1nnnn1C(C)(C)C)N1CCC(n2c(=O)[nH]c3ccccc32)CC1` (stereo not given), the inhibition is inactive: -6.91%.

As to `CCCCn1nnnc1C(c1ccnc2ccccc12)N1CCC(n2c(=O)[nH]c3ccccc32)CC1` (stereo not given), the inhibition is inactive: 1.67%.

Turning to `CC(C)c1ccc(NC2CCN(C(=O)OC(C)(C)C)CC2)cc1`, the inhibition is inactive: -3.52%.

`COC(=O)C1(Nc2ccccc2)CCN(Cc2ccccc2)CC1`: the inhibition was inactive: -1.26%.

As for `COc1ccc(CN(CCCl)CCCl)cc1Cl`, the inhibition is inactive: -0.87%.

As to `CN(C)c1cccc(C(=O)NCC2(N3CCCCC3)CCCCC2)c1`, the inhibition is inactive: -0.64%.

`COc1cc(C(=O)NCC2(N3CCCCC3)CCCCC2)ccc1OC(F)F`: the inhibition is inactive: -0.04%.

For the molecule `O=C(NCC1(N2CCOCC2)CCCCC1)c1cc(=O)[nH]c2ccccc12`, the inhibition was inactive: 2.86%.

For `CCCCn1nnnc1C(c1cccc2ccccc12)N1CCC(n2c(=O)[nH]c3ccccc32)CC1` (stereo not given), the inhibition was inactive: 1.15%.

Turning to `CN1CCN(CCOC(=O)C(O)(c2ccccc2)c2ccccc2)CC1`, the inhibition is inactive: -2.15%.

`CC(C)c1ccc(C(=O)NCC2(N3CCOCC3)CCCCC2)cc1`: the inhibition is inactive: -0.5%.

For the molecule `COc1ccc(NC2CCN(C(=O)OC(C)(C)C)CC2)cc1`, the inhibition is inactive: 5.52%.

On to `O=C(NCC1(N2CCCCC2)CCCCC1)c1cccc(C(F)(F)F)c1`, for which the inhibition is inactive: -5.79%.

Turning to `CCN1CCC(Nc2ccc(Cl)cc2)CC1`, the inhibition is inactive: 0.88%.

In the case of `N#CC1(Nc2ccccc2)CCN(CCc2ccccc2)CC1`, the inhibition was inactive: -2.48%.

Consider `O=c1[nH]c2ccccc2n1C1CCN(C(c2ccccc2OC(F)(F)F)c2nnnn2C2CCCC2)CC1` (stereo not given), for which the inhibition is inactive: 1.11%.

Consider `O=C(NCC1(N2CCCCC2)CCCCC1)c1cccc([N+](=O)[O-])c1`, for which the inhibition was inactive: 3.6%.

With `CSc1ccc(C(=O)NCC2(N3CCOCC3)CCCCC2)cc1`, the inhibition was inactive: -0.49%.

Regarding `CC(C)(C)n1nnnc1C(c1ccccc1OC(F)(F)F)N1CCC(n2c(=O)[nH]c3ccccc32)CC1` (stereo not given), the inhibition was inactive: 2.65%.

For the molecule `O=C(NCC1(N2CCCCC2)CCCCC1)c1ccc(OC(F)F)cc1`, the inhibition was inactive: -4.15%.

With `COc1cc(C(=O)NCC2(N(C)C)CCCCC2)ccc1OC(F)F`, the inhibition was inactive: -3.22%.

For `CCOC(=O)N1CCC(Nc2cccc(C)c2)CC1`, the inhibition was inactive: -0.55%.

Take `O=c1[nH]c2ccccc2n1C1CCN(C(c2cccc3ccccc23)c2nnnn2C2CCCC2)CC1` (stereo not given): the inhibition was inactive: -1.92%.

Consider `O=c1[nH]c2ccccc2n1C1CCN(C(c2ccccc2)c2nnnn2C2CCCCC2)CC1` (stereo not given), for which the inhibition was inactive: -0.12%.

For the molecule `O=C(NCC1(N2CCCCC2)CCCCC1)c1ccc(F)cc1`, the inhibition was inactive: 0.77%.

Consider `CCCCn1nnnc1C(c1cc2ccccc2o1)N1CCC(n2c(=O)[nH]c3ccccc32)CC1` (stereo not given), for which the inhibition is inactive: 3.45%.

For the molecule `O=P1(N(CCCl)CCCl)SCCCS1`, the inhibition was inactive: -1.38%.

Take `CCCCOc1ccc(C(=O)NCC2(N3CCOCC3)CCCCC2)cc1`: the inhibition is inactive: 1.21%.

As for `COc1ccc(NC2CCN(CCc3ccccc3)CC2)c(OC)c1`, the inhibition is inactive: -3.01%.

Consider `CCOC(=O)N1CCC(Nc2ccc(F)cc2)CC1`, for which the inhibition is inactive: 4.82%.

`CC(C)(C)n1nnnc1C(c1ccccc1)N1CCC(n2c(=O)[nH]c3ccccc32)CC1` (stereo not given): the inhibition is inactive: 3.03%.

On to `O=C1CCN(Cc2ccccc2)CC1`, for which the inhibition was inactive: -1.91%.

Regarding `CCOc1ccc(C)cc1CN(CCCl)CCCl`, the inhibition is inactive: 3.83%.

Regarding `O=C(OC1CN2CCC1CC2)C1c2ccccc2Oc2ccccc21` (stereo not given), the inhibition is inactive: 2.14%.

With `O=c1[nH]c2ccccc2n1C1CCN(C(c2cc3ccccc3o2)c2nnnn2C2CCCCC2)CC1` (stereo not given), the inhibition is inactive: -3.6%.

With `O=C(NCC1(N2CCCCC2)CCCCC1)c1ccc(Cl)s1`, the inhibition is inactive: -7.34%.

Consider `N#CC1(Nc2ccccc2)CCN(Cc2ccccc2)CC1`, for which the inhibition was inactive: -1.32%.

As for `COc1ccc(Cl)cc1C(=O)NCC1(N2CCOCC2)CCCCC1`, the inhibition was inactive: 1.01%.

Take `CCOC(=O)N1CCC(Nc2ccc(OC)cc2)CC1`: the inhibition is inactive: -0.89%.

Consider `CCCCn1nnnc1C(c1ccc(OC)cc1)N1CCC(n2c(=O)[nH]c3ccccc32)CC1` (stereo not given), for which the inhibition was inactive: -0.1%.

As to `O=c1[nH]c2ccccc2n1C1CCN(C(c2ccccc2OC(F)(F)F)c2nnnn2C2CCCCC2)CC1` (stereo not given), the inhibition was inactive: -0.46%.

`O=C(NCC1(N2CCCCC2)CCCCC1)c1ccc(Cl)nc1`: the inhibition is inactive: 2.14%.

In the case of `Cc1cc(C)cc(N(C(=O)c2ccccc2)C2CCN(C(=O)OC(C)(C)C)CC2)c1`, the inhibition was inactive: 0.41%.

Take `O=C(NCC1(N2CCOCC2)CCCCC1)c1cc2ccccc2o1`: the inhibition is inactive: -0.22%.

Regarding `CSc1ccccc1C(=O)NCC1(N2CCCCC2)CCCCC1`, the inhibition was inactive: -0.13%.

In the case of `Cc1cccc(NC2(C#N)CCN(Cc3ccccc3)CC2)c1`, the inhibition was inactive: 1.76%.

On to `COc1ccc(C(=O)NCC2(N3CCCCC3)CCCCC2)cc1`, for which the inhibition is inactive: -5.1%.

For `CCC(c1nnnn1C1CCCC1)N1CCC(n2c(=O)[nH]c3ccccc32)CC1` (stereo not given), the inhibition is inactive: 1.22%.

Regarding `CC(C)(C)OC(=O)N1CCC(N(C(=O)c2ccccc2)c2ccc(F)cc2)CC1`, the inhibition was inactive: 4.79%.

Take `COc1ccc(C(=O)NCC2(N3CCCCC3)CCCCC2)c(OC)c1OC`: the inhibition is inactive: -0.78%.

Turning to `O=C(NCC1(N2CCCCC2)CCCCC1)c1ccc(=O)[nH]c1`, the inhibition is inactive: -7.72%.

Consider `CCCCn1nnnc1C(c1cccs1)N1CCC(n2c(=O)[nH]c3ccccc32)CC1` (stereo not given), for which the inhibition was inactive: 0.28%.

As to `O=C(NCC1(N2CCCCC2)CCCCC1)c1cccs1`, the inhibition was inactive: 1.35%.

Take `CCCCn1nnnc1C(CC)N1CCC(n2c(=O)[nH]c3ccccc32)CC1` (stereo not given): the inhibition is inactive: -2.04%.
